Measured values from several laboratories, pooled; numbers as filed in NIAID ChemDB.

All rows: growth or infection tests; organism: HIV-1; cell line: PBMC; measure: fold resistance

Neighbouring rows are from separate reports. Fold resistance has wild type as its base. An empty or dashed field is not shown.

structure | strain or isolate | mutations | read by | result
Nc1ccn([C@H]2CC[C@@H](CO)O2)c(=O)n1 | BCF02 | RT-A98G V106I Y181C |  | 0.2
O=c1[nH]cnc2c1ncn2[C@H]1CC[C@@H](CO)O1 | 1617-1 NRTI resistant recombinant | RT-T69K K70G V75I F77L F116Y Q151M M184V | RT activity | 23
Cc1csc(NC(=S)N[C@H](C)c2cccc3ccccc23)n1 | NNRTI-resistant (RT Y181C K103N) A17V | RT-Y181C K103N | p24 | 114
Cc1ccnc2c1NC(=O)c1cccnc1N2C1CC1 | NRTI resistant (RT Y181C) A17 | RT-Y181C | p24 | 2941
O=c1[nH]cnc2c1ncn2[C@H]1CC[C@@H](CO)O1 | BCF08 | RT-A98G Y181C |  | 0.235
Cc1cn([C@H]2C[C@H](F)[C@@H](CO)O2)c(=O)[nH]c1=O | RS NRTI-MDR (RT M41L M43E E44A D67N V118I M184V L210W T215Y K219N) | RT-M41L M43E E44D/A D67N V118I M184V L210W T215Y K219N | antigen | 1.1
C[C@@H](NC(=S)Nc1ccc(Cl)cn1)c1cccc2ccccc12 | NNRTI-resistant (RT Y181C K103N) A17V | RT-Y181C K103N | p24 | 367
Nc1ccn([C@@H]2CS[C@H](CO)O2)c(=O)n1 | 1617-1 NRTI resistant recombinant | RT-T69K K70G V75I F77L F116Y Q151M M184V | RT activity | >300
Nc1ccn([C@H]2CC[C@@H](CO)O2)c(=O)n1 | Recombinant | RT-V75I F77L Q151M | p24 | 0.06
Cc1cccc(NC(=S)NC[C@H](C)c2ccccc2)n1 | NNRTI-resistant (RT Y181C K103N) A17V | RT-Y181C K103N | p24 | 29.75
Cc1cn([C@H]2C[C@H](N=[N+]=[N-])[C@@H](CO)O2)c(=O)[nH]c1=O | 4755-5 NRTI resistant recombinant | RT-M41L E44D D67N T69D Y118I M184V L210W T215Y | RT activity | 61
CC(C)Nc1cccnc1N1CCN(C(=O)c2cc3cc(NS(C)(=O)=O)ccc3[nH]2)CC1 | 477 clinical isolates delavirdine-resistant |  | p24 | 67
CC(C)(C)NC(=O)[C@@H]1CN(Cc2cccnc2)CCN1C[C@@H](O)C[C@@H](Cc1ccccc1)C(=O)N[C@H]1c2ccccc2C[C@H]1O | Clinical isolate | PR-L10I V11I T12E I15V L19I R41K M46L L63 A71T V82A L90M | p24 | 16.2
O=c1[nH]cnc2c1ncn2[C@H]1CC[C@@H](CO)O1 |  | RT-T215Y K219Q | p24 | 1.375
CC(C)c1nc(CN(C)C(=O)N[C@H](C(=O)N[C@@H](Cc2ccccc2)C[C@H](O)[C@H](Cc2ccccc2)NC(=O)OCc2cncs2)C(C)C)cs1 | Clinical isolate | PR-L10I I15V K20R M36I M46L I54V K55R I62V L63P K70Q V82A L89M | p24 | >23
Cc1cn([C@H]2C[C@H](N=[N+]=[N-])[C@@H](CO)O2)c(=O)[nH]c1=O | 458 clinical isolates delavirdine-resistant |  | p24 | 1
Cc1ccnc2c1NC(=O)c1cccnc1N2C1CC1 | RUD (RT-A98G) | RT-A98G |  | 1.3
CC(C)OC(=O)OCOP(=O)(CO[C@H](C)Cn1cnc2c(N)ncnc21)OCOC(=O)OC(C)C | 4755-5 NRTI resistant recombinant | RT-M41L E44D D67N T69D Y118I M184V L210W T215Y | RT activity | 2.3
CC(C)(C)NC(=O)[C@@H]1C[C@@H]2CCCC[C@@H]2CN1C[C@@H](O)[C@H](Cc1ccccc1)NC(=O)[C@H](CC(N)=O)NC(=O)c1ccc2ccccc2n1 | Clinical isolate | PR-L10R N37D M46I I62V L63P A71V G73S V77I V82T L90M I93L | p24 | 4.2
Cc1cn([C@H]2C[C@H](N=[N+]=[N-])[C@@H](CO)O2)c(=O)[nH]c1=O |  | RT-L74V T215Y K219Q | p24 | 2
Cc1ccc(NC(=S)N[C@H](C)c2cccc3ccccc23)nc1 | NNRTI-resistant (RT Y181C) A17 | RT-Y181C | p24 | 29
S=C(NCCc1ccccn1)Nc1ccc(Br)cn1 | NRTI resistant (RT Y181C K103N) A17 variant | RT-Y181C K103N | p24 | 14285
Cc1ccc(NC(=S)NC[C@H](C)c2ccccc2)nc1 | NNRTI-resistant (RT Y181C) A17 | RT-Y181C | p24 | 360
Cc1cn([C@H]2C[C@H](N=[N+]=[N-])[C@@H](CO)O2)c(=O)[nH]c1=O | Recombinant | RT-M184V | p24 | 2.5
C[C@H](CNC(=S)Nc1ccc(Br)cn1)c1ccccc1 | NNRTI-resistant (RT Y181C) A17 | RT-Y181C | p24 | 39
Cc1c(O)cccc1C(=O)N[C@@H](CSc1ccccc1)[C@H](O)CN1C[C@H]2CCCC[C@H]2C[C@H]1C(=O)NC(C)(C)C | Clinical isolate | PR-L10I I15V E35D N37E K45R I54V L63P A71V V82T L90M I93L C95F | p24 | >43.5